Experimental data: article PMC3929750

Columns and labels:
[1] = biological target: JR-FLan/KI812.7 Env (HIV-1 (JR-FL) | HIV-1 (CRF01_AE, individual KI812))
[2] = biological target: JR-FLan/KI812.7 Env M425K (HIV-1 (JR-FL) | HIV-1 (CRF01_AE, individual KI812))
[3] = biological target: JR-FLan/KI812.7 Env N183K/N273D/M425K (HIV-1 (JR-FL) | HIV-1 (CRF01_AE, individual KI812))
[4] = biological target: JR-FLan/KI812.7 Env N273D/M425K (HIV-1 (JR-FL) | HIV-1 (CRF01_AE, individual KI812))
[5] = biological target: JR-FLan/KI812.7 Env N183K/M425K (HIV-1 (JR-FL) | HIV-1 (CRF01_AE, individual KI812))
[6] = biological target: JR-FLan/KI812.7 Env N183K (HIV-1 (JR-FL) | HIV-1 (CRF01_AE, individual KI812))
[7] = biological target: JR-FLan/KI812.7 Env N183K/N273D (HIV-1 (JR-FL) | HIV-1 (CRF01_AE, individual KI812))
[8] = biological target: JR-FLan/KI812.7 Env N273D (HIV-1 (JR-FL) | HIV-1 (CRF01_AE, individual KI812))

Q: With “recombinant human sCD4 (from UniProt P01730 26-396) (receptor)” as the substance, how does the EC50 of sCD4 for 50% inhibition of entry of luciferase-reporter pseudotyped virus into NP2/CD4/CXCR4/CCR5 cells (single-round entry assay, 48 h) [1] read?
A: Its EC50 of sCD4 for 50% inhibition of entry of luciferase-reporter pseudotyped virus into NP2/CD4/CXCR4/CCR5 cells (single-round entry assay, 48 h) is > 10 mg/L.

Q: What about the EC50 of sCD4 for 50% inhibition of entry of luciferase-reporter pseudotyped virus into NP2/CD4/CXCR4/CCR5 cells (single-round entry assay, 48 h) [2] of the same substance?
A: Its EC50 of sCD4 for 50% inhibition of entry of luciferase-reporter pseudotyped virus into NP2/CD4/CXCR4/CCR5 cells (single-round entry assay, 48 h) is 0.42 mg/L.

Q: And the EC50 of sCD4 for 50% inhibition of entry of luciferase-reporter pseudotyped virus into NP2/CD4/CXCR4/CCR5 cells (single-round entry assay, 48 h) [3]?
A: The EC50 of sCD4 for 50% inhibition of entry of luciferase-reporter pseudotyped virus into NP2/CD4/CXCR4/CCR5 cells (single-round entry assay, 48 h) was 0.22 mg/L.

Q: And the EC50 of sCD4 for 50% inhibition of entry of luciferase-reporter pseudotyped virus into NP2/CD4/CXCR4/CCR5 cells (single-round entry assay, 48 h) [4]?
A: The EC50 of sCD4 for 50% inhibition of entry of luciferase-reporter pseudotyped virus into NP2/CD4/CXCR4/CCR5 cells (single-round entry assay, 48 h) was 0.14 mg/L.

Q: And the EC50 of sCD4 for 50% inhibition of entry of luciferase-reporter pseudotyped virus into NP2/CD4/CXCR4/CCR5 cells (single-round entry assay, 48 h) [5]?
A: Its EC50 of sCD4 for 50% inhibition of entry of luciferase-reporter pseudotyped virus into NP2/CD4/CXCR4/CCR5 cells (single-round entry assay, 48 h) is 0.35 mg/L.

Q: What about the EC50 of sCD4 for 50% inhibition of entry of luciferase-reporter pseudotyped virus into NP2/CD4/CXCR4/CCR5 cells (single-round entry assay, 48 h) [6] of the same substance?
A: Its EC50 of sCD4 for 50% inhibition of entry of luciferase-reporter pseudotyped virus into NP2/CD4/CXCR4/CCR5 cells (single-round entry assay, 48 h) is > 10 mg/L.

Q: And the EC50 of sCD4 for 50% inhibition of entry of luciferase-reporter pseudotyped virus into NP2/CD4/CXCR4/CCR5 cells (single-round entry assay, 48 h) [7]?
A: Its EC50 of sCD4 for 50% inhibition of entry of luciferase-reporter pseudotyped virus into NP2/CD4/CXCR4/CCR5 cells (single-round entry assay, 48 h) is 8.6 mg/L.

Q: And the EC50 of sCD4 for 50% inhibition of entry of luciferase-reporter pseudotyped virus into NP2/CD4/CXCR4/CCR5 cells (single-round entry assay, 48 h) [8]?
A: The EC50 of sCD4 for 50% inhibition of entry of luciferase-reporter pseudotyped virus into NP2/CD4/CXCR4/CCR5 cells (single-round entry assay, 48 h) was 6.9 mg/L.
